Pooled drug test results. Numbers come from NIAID ChemDB, via PubChem.

Shared fields: toxicity to cultured cells; cell line: MT-4; read-out: CC50

Conditions beyond the fields shown may differ between rows.

smiles | method | value
COc1c(CC=C(C)C)c(O)cc2oc(=O)c3c4ccc(O)cc4oc3c12 |  | 14 µg/mL
Cc1cc(C#Cc2cccc(N)c2)cc(C)c1Oc1ccnc(Nc2ccc(C#N)cc2)n1 | MTT | 5.005 µM
Cc1cn([C@H]2C[C@H](N=[N+]=[N-])[C@@H](CO)O2)c(=O)[nH]c1=O |  | 4.6 µM
CC1CCCCN1CCCNCc1ccc(CNCCCN2CCCCC2C)cc1 | MTT | >25 µg/mL
O=c1[nH]c(=O)n([C@H]2C[C@H](F)[C@@H](CO)O2)cc1I |  | 3.3 µM
C[C@H](CC[C@H](O)C(C)(O)CO)[C@H]1CC[C@@]2(C)C3=CCC4C(C)(C)[C@@H](O)CC[C@]4(C)C3=CC[C@]12C |  | >1000 µM
CC(C)[C@H](NC(=O)N(C)Cc1ccccn1)C(=O)N[C@@H](Cc1ccccc1)[C@H](O)[C@H](O)[C@H](Cc1ccccc1)NC(=O)[C@@H](NC(=O)N(C)Cc1ccccn1)C(C)C |  | >0.2 µM
CC(=O)Nc1cccc(C#Cc2cc(C)c(Oc3ccnc(Nc4ccc(C#N)cc4)n3)c(C)c2)c1 | MTT | 0.844 µM
CCCN(C)C(=O)Oc1nsnc1-c1c(Cl)ccc(O)c1Cl |  | 34 µM
Cc1cn([C@@H]2O[C@H](CO[Si](C)(C)C(C)(C)C)C3(OS(=O)(=O)C=C3N)[C@H]2O[Si](C)(C)C(C)(C)C)c(=O)n(C)c1=O |  | 230 µM
Cc1cn([C@H]2C[C@H](N=[N+]=[N-])[C@@H](CO)O2)c(=O)[nH]c1=O |  | 1 µg/mL
Nc1ncnc2c1ncn2CCOCP(=O)(OCCSSCCO)OCCSSCCO |  | 20 µM
Cc1cn([C@H]2C[C@H](N=[N+]=[N-])[C@@H](CO)O2)c(=O)[nH]c1=O | MTT | 113 µM
C=C(C)C12C[C@@H](COC(C)=O)[C@@]3(OO1)[C@@H]1[C@H]2O[C@H](O)CCCCCC[C@@H](C)[C@H]2[C@H](C)[C@H](OCc4ccccc4)[C@@](O)([C@H](O)[C@@]4(CO)O[C@@H]14)[C@@H]23 | ATP / luminescence | 4.3 µM
C[C@H](CCC=C(CO)CO)[C@H]1CC[C@@]2(C)C3=CC[C@H]4C(C)(C)C(=O)CC[C@]4(C)C3=CC[C@]12C |  | >15.6 µM
Nc1ncnc2c1ncn2CCOCP(=O)(O)O |  | 40 µM
C=C(C)C12C[C@@H](COCc3ccccc3)[C@@]3(OO1)[C@@H]1[C@H]2OCCCCCCC[C@@H](C)[C@H]2[C@H](C)C(=O)[C@@](O)([C@H](O)[C@@]4(CO)O[C@@H]14)[C@@H]23 | ATP / luminescence | 7.3 µM
CC(C)[C@H](NC(=O)N(C)Cc1ccccn1)C(=O)N[C@@H](Cc1ccccc1)[C@H](O)[C@@H](O)[C@H](Cc1ccccc1)NC(=O)[C@@H](NC(=O)N(C)Cc1ccccn1)C(C)C |  | >0.17 µM
Cc1cn(C[C@H]2C[C@@]2(CO)c2ccccc2)c(=O)[nH]c1=O |  | >100 µg/mL
O=C(CCc1ccc(O)cc1)c1c(O)cc(O)cc1O[C@@H]1O[C@H](CO)[C@@H](O)[C@H](O)[C@H]1O | MTT | >200 µM
C=CCn1c(=O)c(C)cn([C@@H]2O[C@H](CO[Si](C)(C)C(C)(C)C)C3(OS(=O)(=O)C=C3N)[C@H]2O[Si](C)(C)C(C)(C)C)c1=O |  | ≥300 µM
Cc1cc(C#CC2CC2)cc(C)c1Oc1ccnc(Nc2ccc(C#N)cc2)n1 | MTT | 12.8 µM
CC(=O)O[C@@H]1C(=O)C2=C(C(=O)C[C@H]3C(C)(C)[C@@H](O)CC[C@]23C)[C@]2(C)C(=O)C[C@H]([C@@H](C)CC(=O)C[C@@H](C)C(=O)O)[C@@]12C |  | >1000 µM
CCn1c(=O)c(C)cn([C@@H]2O[C@H](CO[Si](C)(C)C(C)(C)C)C3(OS(=O)(=O)C=C3N)[C@H]2O[Si](C)(C)C(C)(C)C)c1=O |  | 123 µM
Cc1cn([C@H]2C[C@H](O)[C@@H](CO)[Se]2)c(=O)[nH]c1=O |  | >100 µM
COc1ccc(CCNc2nc(NC(=S)Nc3ccc(Cl)cc3)nc(Oc3cc(=O)oc4ccccc34)n2)cc1OC | MTT | 40.83 µg/mL
CC(C)=CCC/C(C)=C/CC/C(C)=C/CC/C(C)=C/Cc1cc(O)cc2c1OC(=O)C2 | MTT | 42.37 µM
Cc1cc(C#Cc2cccc(N)c2)cc(C)c1Oc1ccnc(NC2CCN(c3cccc(C(N)=O)c3)CC2)n1 | MTT | 1.063 µM
COc1ccc(CCNc2nc(NC(=O)Nc3cccc(C)c3)nc(Oc3cc(=O)oc4ccccc34)n2)cc1OC | MTT | 22.45 µg/mL
Cc1cc(O)cc(O)c1 | MTT | 188 µM
O=C(CN1CCN(Cc2ccccc2)CC1)OC[C@@H]1CC[C@H](n2cnc3c(=O)[nH]cnc32)O1 | MTT | >1000 µM
C=C(/C=C/P(=O)(O)O)Cn1cnc2c(=O)[nH]c(N)nc21 | MTT | >1000 µM
CCCN(C)C(=O)Oc1nsnc1-c1c(Cl)ccc([N+](=O)[O-])c1Cl |  | 54 µM
COc1cc([C@@H]2c3c(cc(OC)c(O)c3OC)C[C@H](CO)[C@H]2CO)cc(OC)c1O | MTT | >200 µM
CC(C)=CCc1c(O)ccc(C(=O)/C=C/c2cc(O)c3c(c2)C=CC(C)(C)O3)c1O |  | 12 µg/mL
Cc1cn([C@H]2C[C@H](N=[N+]=[N-])[C@@H](CO)O2)c(=O)[nH]c1=O | MTT | >1 µM
Cc1ccc2c(c1)C(=Nc1ccc(S(=O)(=O)Nc3nc(C)cc(C)n3)cc1)C(=O)N2 |  | >125 µg/mL
Nc1ccn(C[C@@H]2C[C@@]2(CO)c2ccccc2)c(=O)n1 |  | <46.7 µg/mL
CC(C)=CCc1cc(-c2oc3cc(O)c(CC=C(C)C)c(O)c3c(=O)c2O)ccc1O |  | 53 µg/mL
O=c1ccn([C@H]2C[C@H](F)[C@@H](CO)O2)c(=O)[nH]1 |  | 2.4 µM
Cc1cccc(C)c1Oc1ccnc(Nc2ccc(C#N)cc2)n1 | MTT | 12.1 µM
COc1c(N2CCN(CC(=O)OC[C@@H]3CC[C@H](n4cnc5c(=O)[nH]cnc54)O3)CC2)c(F)cc2c(=O)c(C(=O)O)cn(C3CC3)c12 | MTT | 770 µM
CC(=O)N1C(=O)C(=Nc2ccc(S(=O)(=O)Nc3nc(C)cc(C)n3)cc2)c2ccccc21 |  | >125 µg/mL
CCCN(C)C(=O)Oc1nsnc1-c1c(Cl)ccc(C(=O)OCC)c1Cl |  | 25 µM
Cc1cc(C#Cc2ccccn2)cc(C)c1Oc1ccnc(Nc2ccc(C#N)cc2)n1 | MTT | 2.068 µM
O=c1[nH]cnc2c1ncn2[C@H]1CC[C@@H](CO)O1 |  | >100 µM
COc1ccc(N2CCN(CC(=O)OC[C@@H]3CC[C@H](n4cnc5c(=O)[nH]cnc54)O3)CC2)cc1 | MTT | 828 µM
CCCN(C)C(=O)Oc1nsnc1-c1c(Cl)cccc1Cl |  | 29 µM
COc1ccc(CCNc2nc(NC(=O)Nc3ccc(C)cc3)nc(Oc3cc(=O)oc4ccccc34)n2)cc1OC | MTT | 74.98 µg/mL
COCc1cn([C@H]2C[C@H](N=[N+]=[N-])[C@@H](CO)O2)c(=O)[nH]c1=O |  | >500 µM
Cc1cc(C#Cc2cccc(N)c2)cc(C)c1Oc1ccnc(NC2CCN(Cc3ccc(S(N)(=O)=O)cc3)CC2)n1 | MTT | 0.732 µM
O=C(O)c1cc(O)c(O)c(O)c1 | MTT | 16.99 µM
COc1ccc(-c2coc3cc(O)ccc3c2=O)cc1 |  | >100 µg/mL
Cc1cc(C)nc(NS(=O)(=O)c2ccc(N=C3C(=O)Nc4ccccc43)cc2)n1 |  | >125 µg/mL
Cc1cn([C@H]2C[C@H](F)[C@@H](CO)O2)c(=O)[nH]c1=O |  | 0.197 µM
C=C(C)C12C[C@@H](C)[C@@]3(OO1)[C@H]([C@H]2O/C=C/C=C/CCCCCCCCC)[C@@H]1O[C@]1(CO)[C@@H](O)[C@]1(O)C(=O)C(C)=C[C@H]13 | ATP / luminescence | 9.4 µM
CCCN(C)C(=O)Oc1nsnc1-c1c(Cl)ccc(C(=O)O)c1Cl |  | >256 µM
CC(=O)OC1C(=O)C2=C(C(=O)CC3C(C)(C)[C@@H](O)CC[C@]23C)[C@]2(C)[C@H](O)C[C@H]([C@H](C)CC(=O)CC(C)C(=O)O)[C@@]12C |  | >1000 µM
CC(C)=CCc1c(O)cc2occ(-c3ccc(O)cc3)c(=O)c2c1O |  | 12 µg/mL
CC(=O)SCCOP(=O)(OCCSC(C)=O)OC[C@H]1O[C@@H](n2cc(C)c(=O)[nH]c2=O)C[C@@H]1N=[N+]=[N-] |  | >100 µM
Cc1cn([C@H]2C[C@H](N=[N+]=[N-])[C@@H](CO)O2)c(=O)[nH]c1=O |  | 72 µM

Blank or dashed fields: not listed here. CCn is the concentration with n% toxicity to the cells.